One compound from patent publication US6858588B2, “Nitrile glycoside useful as a bioenhancer of drugs and nutrients, process of its isolation from moringa oleifera” (Council of Scientific and Industrial Research, priority 2003, dated 2005) can be followed below.

Structures are written as SMILES.

In this assay the test system is C. albicans. In words: Enhancement of anticandidial activity of clotrimazole, broth assay. The note with it: in combination; observed only at relatively higher concentration (10 ug/ml) of the compound.

On to `CC1OC(Oc2ccc(CC#N)cc2O)C(O)C(O)C1O` (stereo not shown) [Niaziridin, NIAZIRIDIN], for which the “Enhancement of antifungal activity of clotrimazole” value is 5-6 folds.
